Anti-infective test results gathered from many reports (values: NIAID ChemDB through PubChem).

All rows: growth or infection tests; species: Herpes simplex virus 1; method: plaque count; measure: EC50

An empty or dashed field is not shown. Conditions beyond the fields shown may differ between rows. ECn: concentration that inhibits the pathogen or its effect by n%.

smiles	cell line	strain or isolate	result
OCCOCn1c(-c2ccccc2)c(Br)c(Br)c1-c1ccccc1	VERO		>51 µM
O=C(O)CP(=O)(O)O	VERO	7401H	24.4 µg/mL
CCCc1cn([C@H]2C[C@H](O)[C@@H](CO)O2)c(=O)[nH]c1=O	HELA BU	KOS	<10 µM
Nc1ccn([C@H]2O[C@@H](CO)[C@H](O)[C@H]2F)c(=O)n1	VERO	F	0.07 µM
CC(=O)OCCOCn1c(-c2ccccc2)c(N)c(C#N)c1-c1ccccc1	VERO		>300 µM
Nc1ccn(COCCO)c(=O)n1			>100 µM
CCCCCCCCCCCCOCCCOP1(=O)CO[C@@H](Cn2ccc(N)nc2=O)CO1	HFF	E-377	>1 µM
O=c1[nH]c(=O)n([C@H]2C[C@H](O)[C@@H](CO)O2)cc1/C=C/Br	HELF	MP	0.011 µg/mL
Nc1nc2c(ncn2CC[C@@H](O)CO)c(=O)[nH]1	VERO	KJ502	7 µM
Nc1nc2c(ncn2CCC(CO)CO)c(=O)[nH]1	MRC-5	5 isolates	0.84 µg/mL
Nc1nc2c(ncn2CCC(O)CO)c(=O)[nH]1	VERO	C42	6 µM
Nc1nc2c(ncn2CCCCO)c(=O)[nH]1	VERO	C42	3 µM
COc1ccc(N(CC(=O)NC(C)(C)C)C(=O)[C@H]2CC[C@@]3(C)C4CC=C5C[C@@H](O)CC[C@]5(C)C4CC[C@]23C)cc1	Vero cells	KOS	10.4 µM
C/C=C/c1cn([C@H]2C[C@H](O)[C@@H](CO)O2)c(=O)[nH]c1=O	HELA BU	B2006 (TK-)	>10 µM
COC(O)[C@@H]1OC12[C@@H](CO[Si](C)(C)C(C)(C)C)O[C@@H](n1cc(C)c(=O)[nH]c1=O)[C@@H]2O[Si](C)(C)C(C)(C)C	VERO		>23 µM
O=C(O)P(=O)(O)O	VERO	F-FIAU-C1	32 µM
Nc1nc2c(ncn2CCC(CO)CO)c(=O)[nH]1	VERO	C1 (101)P2C5	1.5 µg/mL
Nc1ncnc2c1ncn2[C@@H]1C[C@H](CO)[C@@H](O)[C@@H]1O	VERO	F	30.3 µM
Cc1cn([C@@H]2O[C@H](CO)[C@@H](O)[C@@H]2F)c(=O)[nH]c1=O	VERO	McKrae	0.78 µM
CC(C)(C)[Si](C)(C)OC[C@H]1O[C@@H](n2ccc(=O)[nH]c2=O)[C@H](O[Si](C)(C)C(C)(C)C)[C@]12O[C@@H]2CO	VERO		20 µM
Cc1cn([C@@H]2O[C@H](CO)[C@@H](O)[C@@H]2F)c(=O)[nH]c1=O	HELF	CHR-3	0.006 µg/mL
CC(C)(C)NC(=O)CN(C(=O)[C@H]1CC[C@@]2(C)C3CC=C4C[C@@H](O)CC[C@]4(C)C3CC[C@]12C)c1ccccc1	Vero cells	B2006	20 µM
Cc1cn([C@@H]2O[C@H](CO)[C@@H](O)[C@@H]2F)c(=O)[nH]c1=O	VERO	F-ACV-C4	12 µM
Nc1nc2c(ncn2CC(CO)OCP(=O)(O)O)c(=O)[nH]1	WI-38	KOS	1.6 µM
Cc1cn(COCCOC(=O)c2ccccc2)c(=O)[nH]c1=O			>100 µM
CCCCCCCC/C=C\CCCCCCCOCCOP1(=O)CO[C@@H](Cn2ccc(N)nc2=O)CO1	HFF	E-377	0.04 µM
Nc1nc2c(ncn2CCC(CO)CO)c(=O)[nH]1	VERO	KT4	99 µM
CC(C)(C)[Si](C)(C)O[C@H]1[C@H](n2ccc(=O)[nH]c2=O)O[C@H](CO)C1(O)C(N=[N+]=[N-])C(N)=O	VERO		>100 µM
CCOC(=O)c1c(Br)c(-c2ccccc2)n(COCCO)c1-c1ccccc1	VERO		>64 µM
CS/C=C/C(=O)NCCCCNC(=O)/C=C/SC			<20 µg/mL
O=[N+]([O-])c1cc(-c2ccccc2)n(COCCO)c1-c1ccccc1	VERO		>46 µM
Nc1nc(=O)n(COCCO)cc1Br			>100 µM
Cn1cc(C(=O)NCc2ccc(Cl)cc2)c(=O)c2cc(CN3CCOCC3)ccc21	VERO	KOS	3.3 µM
COC(=O)/C=C1/[C@@H](O[Si](C)(C)C(C)(C)C)[C@H](n2cc(C)c(=O)[nH]c2=O)O[C@@H]1CO[Si](C)(C)C(C)(C)C	VERO		>35 µM
Nc1nc2c(ncn2CCC(CO)CO)c(=O)[nH]1	BALB/3T3	KOS	0.037 µg/mL
CCCCCCCCCCCCCCCCOP1(=O)CO[C@@H](Cn2ccc(N)nc2=O)CO1	HFF	E-377	>1 µM
Cc1cn([C@H]2C[C@H](O)[C@]3(CO)C[C@H]23)c(=O)[nH]c1=O	HFF	F (TK+)	0.07 µg/mL
Nc1nc2c(ncn2CC(CO)CCO)c(=O)[nH]1	VERO	7935-72	0.15 µM
Nc1nc(=O)n([C@H]2C[C@H](O)[C@@H](CO)O2)cc1/C=C/Br	VERO		1.08 µM
Nc1ncnc2c1ncn2[C@@H]1O[C@H](CO)[C@@H](O)[C@@H]1O	RK-13	Ara-A-resistant	105 µM
Nc1ccn(C[C@@H](CO)OCP(=O)(O)O)c(=O)n1	HFF	HL-3	3 µM
Nc1nc(=O)n([C@@H]2O[C@H](CO)[C@@H](O)[C@@H]2F)cc1I	HELF	VR-3	0.013 µg/mL
CCOC(=O)c1c(Br)c(-c2ccccc2)n(COCCOC(C)=O)c1-c1ccccc1	VERO		>47 µM
NS(=O)(=O)OCCOCn1ccc(=O)[nH]c1=O			>100 µM
CCCCCCCCCCCCCCCCCCOC[C@H](COP(=O)(O)CO[C@H](CO)Cn1ccc(N)nc1=O)OCc1ccccc1	HFF	E-377	0.04 µM
Cc1cn([C@@H]2O[C@H](CO)[C@H]2CO)c(=O)[nH]c1=O	HFF	SC16-S1 (TK altered)	34 µg/mL
Nc1nc2c(ncn2COC2COP(=O)(O)OC2)c(=O)[nH]1	MRC-5	PFA	18 µM
O=c1[nH]c(=S)ccn1COCCO			>100 µM
Nc1nc2c(ncn2COCCO)c(=O)[nH]1	HELF	VR-3	0.041 µg/mL
O=C(NCc1ccc(Cl)cc1)c1c[nH]c2ccc(CCCO)cc2c1=O		KOS	7.4 µM
O=c1[nH]c(=O)n(COCCO)cc1C(F)(F)F			>100 µM

Repeating the final 3 entries:

{"smiles": "Nc1nc2c(ncn2COCCO)c(=O)[nH]1", "cell line": "HELF", "strain or isolate": "VR-3", "result": "0.041 µg/mL"}
{"smiles": "O=C(NCc1ccc(Cl)cc1)c1c[nH]c2ccc(CCCO)cc2c1=O", "strain or isolate": "KOS", "result": "7.4 µM"}
{"smiles": "O=c1[nH]c(=O)n(COCCO)cc1C(F)(F)F", "result": ">100 µM"}